Compound potency records, mixed from different reports. Data source: NIAID ChemDB in PubChem.

Shared fields: tests in culture

An empty or dashed field is not shown. Inhibition is in % at the dose shown (toxicity tests: loss of growth or viability). Neighbouring rows are from separate reports. ECn: concentration that inhibits the pathogen or its effect by n%. Two numbers with a dash give a range or band.

CC(=O)c1ccc(Oc2ccccc2)cc1 ; cell line: BSC-1 ; tested at: 10 µg/mL ; species: Poliovirus ; endpoint: inhibition ; strain: TYPE 3 ; result: 100%
CC1(CO)CCC(Cn2cnc3c(Cl)nc(N)nc32)C1(C)C ; cell line: MDCK ; species: Influenza A virus (H2N2) ; endpoint: EC50 ; strain: JAPAN/305/57 ; result: >50 µg/mL
Nc1ncnc2c1nc(Cl)n2[C@@H]1O[C@H](CO)[C@@H](O)[C@H]1O ; cell line: C1271 ; species: Cowpox virus ; endpoint: EC50 ; strain: Brighton ; result: 32 µM
Clc1ccc2c(c1)C=C(c1ccc(Br)cc1)CO2 ; cell line: HEP-2 ; tested at: 10 µM ; species: Poliovirus ; endpoint: inhibition ; strain: IB (TYPE 2) ; result: 29%
C[C@]1(CO)O[C@@H](n2ccc(=O)[nH]c2=O)[C@H](O)[C@@H]1O ; cell line: HepG2.2.15 ; species: Yellow fever virus ; endpoint: EC50 ; result: >10 µM
CC1(C)OC2C(O1)[C@@H](COS(=O)(=O)NC(=O)O[C@H]1O[C@H](COCc3ccccc3)[C@@H](OCc3ccccc3)[C@H](OCc3ccccc3)[C@H]1OCc1ccccc1)O[C@H]2n1ccc(=O)[nH]c1=O ; cell line: VERO ; species: African swine fever virus ; endpoint: EC50 ; result: 0.1 µg/mL
Cc1ccc(C(=O)CCCCCCOc2ccc(C3=NCC(C)O3)cc2)s1 ; cell line: VERO ; species: Poliovirus ; endpoint: EC50 ; strain: TYPE 1 ; result: >25.97 µM
CC1(CO)CCC(Cn2nnc3c(=O)[nH]c(N)nc32)C1(C)C ; cell line: MDCK ; species: Influenza A virus (H2N2) ; endpoint: EC50 ; strain: JAPAN/305/57 ; result: >50 µg/mL
CC(=O)OC1C(OC(C)=O)[C@@H](COS(=O)(=O)NC(C)C)O[C@H]1n1ccc(=O)[nH]c1=O ; cell line: VERO ; species: African swine fever virus ; endpoint: EC50 ; result: 100 µg/mL
CC(C)O[C@@H]1[C@H](OC(C)C)[C@@H](COS(=O)(=O)NC(=O)O[C@H]2O[C@H](COC(=O)c3ccccc3)[C@@H](OC(=O)c3ccccc3)[C@H](OC(=O)c3ccccc3)[C@H]2OC(=O)c2ccccc2)O[C@H]1n1ccc(=O)[nH]c1=O ; cell line: VERO ; species: African swine fever virus ; endpoint: EC50 ; result: 0.1 µg/mL
Nc1ccn(C[C@H]2COP(=O)(O)CO2)c(=O)n1 ; cell line: VERO ; species: Variola virus ; endpoint: EC50 ; strain: Isolate V74-227 ; result: 9 µg/mL
CC(=O)c1ccc2c(c1)Sc1ccccc1S2 ; cell line: BSC-1 ; tested at: 10 µg/mL ; species: Poliovirus ; endpoint: inhibition ; strain: TYPE 3 ; result: 100%
CC1(CO)O[C@H](n2cnc3c(N)ncnc32)[C@@H](O)[C@H]1O ; cell line: HepG2.2.15 ; species: Yellow fever virus ; endpoint: EC50 ; result: >10 µM
CC(O)c1ccc2c(c1)Sc1ccccc1O2 ; cell line: BSC-1 ; tested at: 2 µg/mL ; species: Poliovirus ; endpoint: inhibition ; strain: TYPE 3 ; result: 100%
CC1S/C(=N/N=C2\C(=O)Nc3ccc([N+](=O)[O-])cc32)N(c2ccc(F)cc2)C1=O ; cell line: VERO ; species: Yellow fever virus ; endpoint: EC50 ; result: >4 µg/mL
CC1(CO)CCC(Cn2nnc3c(Cl)nc(N)nc32)C1(C)C ; cell line: MDCK ; species: Influenza A virus (H2N2) ; endpoint: EC50 ; strain: JAPAN/305/57 ; result: >50 µg/mL
Cn1cc(NC(=O)c2cc(NC(=O)c3cc([N+](=O)[O-])cn3C)cn2C)cc1C(=O)NCCC(=N)N ; cell line: BSC-1 ; tested at: 25 µg/mL ; species: Vaccinia virus ; endpoint: inhibition ; strain: Noguchi ; result: 0%
CC(C)OC1[C@H](n2ccc(=O)[nH]c2=O)O[C@H](COS(=O)(=O)NC(=O)NC[C@H]2O[C@H](COCc3ccccc3)[C@@H](OCc3ccccc3)[C@H](OCc3ccccc3)[C@H]2OCc2ccccc2)[C@H]1OC(C)C ; cell line: VERO ; species: African swine fever virus ; endpoint: EC50 ; result: 10 µg/mL
CC12CC[C@H](O)CC1=CCC1C2CCC2(C)C(C(=O)COS(=O)(=O)O)CCC12 ; cell line: VERO ; tested at: 80 µg/mL ; species: Junin virus ; endpoint: inhibition ; strain: IV4454 ; result: 18.4%
C[C@H]1[C@H](O)[C@@H](C)/C=C/C=C/C=C/C=C/C=C/C=C/C=C/[C@H](O[C@@H]2O[C@H](C)[C@@H](O)[C@H](N)[C@@H]2O)C[C@@H]2O[C@](O)(C[C@@H](O)C[C@@H](O)CC[C@H](O)[C@@H](O)C[C@@H](O)CC(=O)O[C@H]1C)C[C@H](O)[C@H]2C(=O)O ; species: Histoplasma capsulatum ; endpoint: Mean MIC ; strain: 20 isolates ; result: 0.56 µg/mL
Nc1ncnc2c1nc(Br)n2[C@@H]1O[C@H](CO)[C@@H](O)[C@H]1O ; cell line: C1271 ; species: Cowpox virus ; endpoint: EC50 ; strain: Brighton ; result: 7.6 µM
CC(C)O[C@@H]1[C@H](OC(C)C)[C@@H](COCCCC2O[C@H](COC(=O)c3ccccc3)[C@@H](OC(=O)c3ccccc3)[C@H](OC(=O)c3ccccc3)[C@H]2OC(=O)c2ccccc2)O[C@H]1n1ccc(=O)[nH]c1=O ; cell line: VERO ; species: African swine fever virus ; endpoint: EC50 ; result: 25 µg/mL
CC(O)c1cccc(Cc2ccccc2)c1 ; cell line: BSC-1 ; tested at: 10 µg/mL ; species: Poliovirus ; endpoint: inhibition ; strain: TYPE 3 ; result: 100%
Clc1ccc(C2=Cc3ccccc3OC2)cc1 ; cell line: HEP-2 ; species: Poliovirus ; endpoint: EC50 ; strain: IB (TYPE 2) ; result: >10 µM
CCC1COC(c2ccc(OCCCCCCC(=O)c3ccc(C)s3)cc2)=N1 ; cell line: VERO ; species: Poliovirus ; endpoint: EC50 ; strain: TYPE 3 ; result: 13.8 µM
O=C(NS(=O)(=O)OC[C@H]1O[C@@H](n2ccc(=O)[nH]c2=O)[C@H](O)[C@@H]1O)O[C@@H]1C[C@@H](OC(=O)c2ccccc2)[C@H](OC(=O)c2ccccc2)[C@@H](COC(=O)c2ccccc2)O1 ; cell line: VERO ; species: African swine fever virus ; endpoint: EC50 ; result: >100 µg/mL
Cc1cn([C@@H]2O[C@H](CO)[C@@H](O)[C@@H]2F)c(=O)[nH]c1=O ; cell line: VERO ; species: Cowpox virus ; endpoint: EC50 ; strain: Brighton ; result: 19 µM
CC(=O)N[C@H]1C[C@@H](n2cnc3c(N)ncnc32)[C@H](O)[C@@H]1O ; cell line: HFF ; species: Venezuelan equine encephalitis virus ; endpoint: EC50 ; result: >100 µg/mL
N=C(N)c1ncn([C@@H]2O[C@H](CO)[C@@H](O)[C@H]2O)n1 ; species: Rift valley fever virus ; endpoint: EC50 ; result: 1–100 µM
C[C@H]1[C@H](O)[C@@H](C)/C=C/C=C/C=C/C=C/C=C/C=C/C=C/[C@H](O[C@@H]2O[C@H](C)[C@@H](O)[C@H](N)[C@@H]2O)C[C@@H]2O[C@](O)(C[C@@H](O)C[C@@H](O)CC[C@H](O)[C@@H](O)C[C@@H](O)CC(=O)O[C@H]1C)C[C@H](O)[C@H]2C(=O)O ; species: Histoplasma capsulatum ; endpoint: MIC ; strain: 7 isolates ; result: 0.16–2.5 µg/mL
Nc1nc2ncn(O)c2c(=O)[nH]1 ; cell line: BHK ; species: Japanese encephalitis virus ; endpoint: EC50 ; strain: Nakayama ; result: 30 µg/mL
CO[C@H]1[C@@H](O)[C@H](n2cnc3c(N)ncnc32)O[C@@H]1CO ; cell line: C1271 ; species: Cowpox virus ; endpoint: EC50 ; strain: Brighton ; result: 4.9 µM
CC(=O)O[C@H]1CC2=CCC3C(CCC4(C)C(C(CCC=C(C)C)COS(=O)(=O)O)CCC34)C2(C)C[C@@H]1OS(=O)(=O)O ; cell line: VERO ; tested at: 40 µg/mL ; species: Junin virus ; endpoint: inhibition ; strain: IV4454 ; result: 3.5%
Cc1ccc(C(=O)CCCCOc2ccc(C3=N[C@H](C)CO3)cc2)s1 ; cell line: VERO ; species: Poliovirus ; endpoint: EC50 ; strain: TYPE 3 ; result: 0.14 µM
CCCCN1C(=O)C(C)S/C1=N/N=C1\C(=O)Nc2ccc([N+](=O)[O-])cc21 ; cell line: VERO ; species: Yellow fever virus ; endpoint: EC50 ; result: >20 µg/mL
Brc1ccc(C2=Cc3ccccc3OC2)cc1 ; cell line: HEP-2 ; species: Poliovirus ; endpoint: EC50 ; strain: II (TYPE 2) ; result: >10 µM
C=CCN1C(=O)CS/C1=N/N=C1\C(=O)Nc2ccc([N+](=O)[O-])cc21 ; cell line: VERO ; species: Yellow fever virus ; endpoint: EC50 ; result: 2.18 µg/mL
O=c1cc(/C=C/c2ccc(O)cc2)c2ccc3occ(-c4ccc(-c5ccccc5)cc4)c3c2o1 ; species: Japanese encephalitis virus ; endpoint: EC50 ; result: 250 µg/mL
CC(C)O[C@@H]1[C@H](OC(C)C)[C@@H](COS(=O)(=O)NC(=O)O[C@@H]2C[C@@H](OC(=O)c3ccccc3)[C@H](OC(=O)c3ccccc3)[C@@H](COC(=O)c3ccccc3)O2)O[C@H]1n1ccc(=O)[nH]c1=O ; cell line: VERO ; species: African swine fever virus ; endpoint: EC50 ; result: 235 µg/mL
C1=C(c2ccccc2)COc2ccccc21 ; cell line: HEP-2 ; species: Poliovirus ; endpoint: EC50 ; strain: IB (TYPE 2) ; result: >10 µM
C=CCNC(=S)N=Nc1c(O)[nH]c2ccc([N+](=O)[O-])cc12 ; cell line: VERO ; species: Yellow fever virus ; endpoint: EC50 ; result: 2.18 µg/mL
CC(O)c1ccc2c(c1)Cc1ccccc1O2 ; cell line: BSC-1 ; tested at: 10 µg/mL ; species: Poliovirus ; endpoint: inhibition ; strain: TYPE 3 ; result: 100%
C=CCNC(=S)N=Nc1c(O)n(CN2CCOCC2)c2ccc([N+](=O)[O-])cc12 ; cell line: VERO ; species: Yellow fever virus ; endpoint: EC50 ; result: 11 µg/mL
C[C@]1(CO)O[C@@H](n2ccc(N)nc2=O)[C@H](O)[C@@H]1O ; cell line: HepG2.2.15 ; species: Yellow fever virus ; endpoint: EC50 ; result: >10 µM
COC(=O)c1ncn([C@H]2O[C@@H](COCc3ccccc3)[C@H](OCc3ccccc3)[C@@H]2OCc2ccccc2)c1C(=O)OC ; species: Lassa virus ; endpoint: EC50 ; result: 46 µg/mL
Nc1ccn(C[C@@H](CO)OCP(=O)(O)O)c(=O)n1 ; cell line: VERO ; species: Variola virus ; endpoint: EC50 ; strain: Isolate Hinden ; result: 10 µg/mL
C/C(=N\O)c1ccc2c(c1)Sc1ccccc1S2 ; cell line: BSC-1 ; tested at: 0.4 µg/mL ; species: Poliovirus ; endpoint: inhibition ; strain: TYPE 3 ; result: 18%
CC(C)=CCC[C@@H](COS(=O)(=O)O)C1CCC2C3CC[C@H]4C[C@H](OS(=O)(=O)O)[C@@H](O)CC4(C)C3CCC21C ; cell line: VERO ; tested at: 80 µg/mL ; species: Junin virus ; endpoint: inhibition ; strain: IV4454 ; result: 64%
Nc1ccn(C[C@@H](CO)OCP(=O)(O)O)c(=O)n1 ; cell line: C1271 ; species: Cowpox virus ; endpoint: EC50 ; strain: Brighton ; result: 1 µM
Cc1cc(CCCCCCCOc2ccc(C3=NCCO3)cc2)on1 ; cell line: VERO ; species: Poliovirus ; endpoint: EC50 ; strain: TYPE 2 ; result: 0.61 µM

4 of the rows above, restated:

structure | cell line | tested at | species | endpoint | strain | result
CC(C)O[C@@H]1[C@H](OC(C)C)[C@@H](COCCCC2O[C@H](COC(=O)c3ccccc3)[C@@H](OC(=O)c3ccccc3)[C@H](OC(=O)c3ccccc3)[C@H]2OC(=O)c2ccccc2)O[C@H]1n1ccc(=O)[nH]c1=O | VERO |  | African swine fever virus | EC50 |  | 25 µg/mL
Cn1cc(NC(=O)c2cc(NC(=O)c3cc([N+](=O)[O-])cn3C)cn2C)cc1C(=O)NCCC(=N)N | BSC-1 | 25 µg/mL | Vaccinia virus | inhibition | Noguchi | 0%
Nc1ncnc2c1nc(Cl)n2[C@@H]1O[C@H](CO)[C@@H](O)[C@H]1O | C1271 |  | Cowpox virus | EC50 | Brighton | 32 µM
Clc1ccc(C2=Cc3ccccc3OC2)cc1 | HEP-2 |  | Poliovirus | EC50 | IB (TYPE 2) | >10 µM